Anti-infective test results gathered from many reports (values: NIAID ChemDB through PubChem).

Common to all: whole-cell or culture tests; organism: HIV-1; endpoint: fold resistance

Conditions beyond the fields shown may differ between rows. An empty or dashed field is not shown. Fold resistance: result on the changed form divided by that on wild type.

| SMILES | strain or isolate | mutations | method | cell line | value |
|---|---|---|---|---|---|
| CCc1c(Sc2ccccn2)n(COCc2ccccc2)c(=O)[nH]c1=O | IIIB(A17(III)) | RT-K103N Y181C | cytopathic effect / XTT | CEM + CEM-SS | >333 |
| O=c1[nH]cnc2c1ncn2[C@H]1CC[C@@H](CO)O1 | IIIB-TSAO-m3T(10)(RT-Y181C) | RT-Y181C | syncytia | CEM | 1.1 |
| Nc1ccn([C@H]2CC[C@@H](CO)O2)c(=O)n1 | HXB2D (RT-K65R) | RT-K65R | p24 | MT-4 | 12.4 |
| Nc1ccn([C@H]2CC[C@@H](CO)O2)c(=O)n1 | BCF02 | RT-A98G V106I Y181C | - | PBMC | 0.2 |
| C[C@H](Cn1cnc2c(N)ncnc21)OCP(=O)(O)O | Clinical isolate HA20.17 | RT-A62V V75I F77L Q151M M184V | syncytia | CEM | 15.8 |
| CC(C)CN(C[C@@H](O)[C@H](Cc1ccccc1)NC(=O)O[C@H]1CCOC1)S(=O)(=O)c1ccc(N)cc1 | NL4-3 | L10F V32I L33F M46L I54M A71V | p24 / luminescence | MT-4 | >27 |
| Fc1cccc(F)c1C1SCc2nc3ccccc3n21 | IIIB | RT-L100I | cytopathic effect / XTT | CEM | 2.24 |
| Cc1ccnc2c1NC(=O)c1cccnc1N2C1CC1 | NL4-3 | RT-K101E | cytopathic effect / XTT | CEM + CEM-SS | 15 |
| Nc1ncnc2c1ncn2CCOCP(=O)(O)O | Clinical isolate DE434.4 | RT-K65R S68G T69I V75T Q151M | syncytia | CEM | 46.6 |
| CCn1c(=O)c(C)cn([C@@H]2O[C@H](CO[Si](C)(C)C(C)(C)C)C3(OS(=O)(=O)C=C3N)[C@H]2O[Si](C)(C)C(C)(C)C)c1=O | IIIB TIBO R82913 STR-1 (RT L100I Y181C) | RT-L100I Y181C | syncytia | CEM | >1670 |
| Cc1cn([C@H]2C[C@H](N=[N+]=[N-])[C@@H](CO)O2)c(=O)[nH]c1=O | E BPTU-resistant (RT Y181C) | RT-Y181C | XTT | CEM + CEM-SS | 0.6 |
| Fc1cccc(F)c1[C@H]1SCc2nc3ccccc3n21 | IIIB | RT-L100I | cytopathic effect / XTT | CEM | 5.03 |
| CCn1c(=O)c(C)cn([C@@H]2O[C@H](CO[Si](C)(C)C(C)(C)C)C3(OS(=O)(=O)C=C3N)[C@H]2O[Si](C)(C)C(C)(C)C)c1=O | IIIB BHAP(RT-L100I) | RT-L100I | syncytia | CEM | 1.33 |
| COc1ccc(S(=O)(=O)N(CC(C)C)C[C@@H](O)[C@H](Cc2ccccc2)NC(=O)O[C@H]2CCO[C@H]3OC[C@H](O)[C@H]32)cc1 | NL4-3 | L10I I54V K20R L24I V32I L33F M36I M46I I54M L63P K70Q V82I I84V L89M | p24 / luminescence | MT-4 | 166 |
| Nc1ncnc2c1ncn2CC(CF)OCP(=O)(O)O | IIIB TIBO R82913 STR-2 (RT K103N) | RT-K103N | syncytia | CEM | 0.667 |
| O=c1[nH]c2ccc(Cl)cc2n1Cc1c(F)cccc1F | - | RT-L100I | cytopathic effect | CEM | 2.27 |
| O=c1[nH]cnc2c1ncn2[C@H]1CC[C@@H](CO)O1 | - | RT-T69G | p24 | MT-2 | 8.6 |
| CCOCn1c(Sc2ccccc2)c(CC)c(=O)[nH]c1=S | IIIB BHAP(RT-L100I) | RT-L100I | syncytia | CEM | 17.5 |
| CC(C)c1nc(CN(C)C(=O)N[C@H](C(=O)N[C@@H](Cc2ccccc2)C[C@H](O)[C@H](Cc2ccccc2)NC(=O)OCc2cncs2)C(C)C)cs1 | NL4-3-P22 (PR D30N A71V) | PR-D30N A71V | p24 | MT-4 | 1.8 |
| CCc1cc(NCc2nc3c(Cl)ccc(Cl)c3o2)c(=O)[nH]c1C | IIIB NEV(RT-V106A) | RT-V106A | syncytia | CEM | 11.4 |
| Nc1ncnc2c1ncn2CCOCP(=O)(O)O | IIIB-BHAP)(0.1)(RT-L100I | RT-L100I | syncytia | CEM | 1.14 |
| COC(=O)N[C@H](C(=O)N[C@@H](Cc1ccccc1)[C@@H](O)CN(Cc1ccc(-c2ccccn2)cc1)NC(=O)[C@@H](NC(=O)OC)C(C)(C)C)C(C)(C)C | NL4-3 | L10F K20T D30N K45I A71V V77I | p24 / luminescence | MT-4 | 4 |
| Cc1cn([C@@H]2O[C@H](CO[Si](C)(C)C(C)(C)C)C3(OS(=O)(=O)C=C3N)[C@H]2O[Si](C)(C)C(C)(C)C)c(=O)n(C)c1=O | IIIB-TSAO-m3T(10)(RT-Y181C) | RT-Y181C | syncytia | CEM | 1670 |
| CC(C)Nc1cccnc1N1CCN(C(=O)c2cc3cc(NS(C)(=O)=O)ccc3[nH]2)CC1 | BI-03.97 (HXB2(RT-A62V S68G T69D V75I F77L F116Y Q151M)) | RT-A62V S68G T69D V75I F77L F116Y Q151M | cytopathic effect | MT-4 | 2 |
| CCCc1cc(=O)oc2c3c(c4c(c12)OC(C)(C)C=C4)O[C@H](C)[C@@H](C)[C@@H]3O | IIIB(TIBO-R(I)) | RT-A98G V108I | cytopathic effect / XTT | CEM + CEM-SS | 17.4 |
| O=c1[nH]cnc2c1ncn2[C@H]1CC[C@@H](CO)O1 | DI-06.92 (HXB2 RT-K70R) | RT-K70R | cytopathic effect | MT-4 | 0.21 |
| O=c1[nH]cnc2c1ncn2[C@H]1CC[C@@H](CO)O1 | IIIB | RT-E138K | syncytia | CEM | 2.4 |
| O=c1[nH]cnc2c1ncn2[C@H]1CC[C@@H](CO)O1 | RTMC(184) (RT D67N K70R M184V T215F K219Q) | RT-D67N K70R M184V T215F K219Q | plaque count | HT4 + HT4 LacZ-1 | 2.4 |
| O=S1(c2ccccc2)=NC(=S)Nc2ccccc21 | IIIB HEPT-resistant (IV) | RT-P236L | cytopathic effect / XTT | CEM + CEM-SS | 1 |
| Cc1cn([C@@H]2O[C@H](CO[Si](C)(C)C(C)(C)C)C3(OS(=O)(=O)C=C3N)[C@H]2O[Si](C)(C)C(C)(C)C)c(=O)n(C)c1=O | IIIB | RT-Y181C | cytopathic effect | CEM | 22 |
| Nc1ccn([C@H]2CC[C@@H](CO)O2)c(=O)n1 | IIIB-AZT-2 (RT D67N K70R V108A I135T) | RT-D67N K70R V108A I135T | - | MT-4 | 1.71 |
| CC(C)=CCN1Cc2cccc3[nH]c(=S)n(c23)C[C@@H]1C | Calanolide A-resistant (RT T139I) | RT-T139I | XTT | CEM + CEM-SS | 4 |
| CC(=O)Oc1ccc(/C=C/C(=O)O[C@H](C(=O)O)[C@H](OC(=O)/C=C/c2ccc(OC(C)=O)c(OC(C)=O)c2)C(=O)O)cc1OC(C)=O | NL4-3 | DS-resistant | cytopathic effect / MTT | MT-4 | >12 |
| Nc1ccn([C@H]2CC[C@@H](CO)O2)c(=O)n1 | - | RT-K103N | p24 | MT-2 | 1.3 |
| Nc1ccn([C@H]2CC[C@@H](CO)O2)c(=O)n1 | HXB2 | RT-Y181C M184V | plaque count | HT4 + HT4 LacZ-1 | 3.625 |
| Cc1occc1C(=S)Nc1ccc(Cl)c(/C=N/OC(C)(C)C)c1 | IIIB | RT-L100I | syncytia | CEM | 21.82 |
| CCOCn1c(Cc2ccccc2)c(CC)c(=O)[nH]c1=O | IIIB NEV(RT-V106A) | RT-V106A | syncytia | CEM | 30 |
| Nc1cc(OCCOCP(=O)(O)O)nc(N)n1 | Clinical isolate L6.5 | RT-S68G K70T V75I F77L K103N F116Y Q151M K219R | syncytia | CEM | 1.68 |
| CCOCn1c(Cc2cc(C)cc(C)c2)c(CC)c(=O)[nH]c1=O | IIIB TIBO R82913 STR-2 (RT K103N) | RT-K103N | syncytia | CEM | 10 |
| S=C(NCCc1ccccn1)Nc1ccc(Br)cn1 | NRTI resistant (RT Y181C) A17 | RT-Y181C | p24 | PBMC | 71.4 |
| Nc1nc2c(ncn2[C@H]2CC[C@@H](CO)O2)c(=O)[nH]1 | IIIB TIBO R82150-resistant (RT L100I) | RT-L100I | syncytia | CEM | 1 |
| Cc1cc(S(N)(=O)=O)ccc1NC(=O)COc1ccc(Cl)cc1C(=O)c1cc(Cl)cc(C#N)c1 | NNRTI-resistant (RT P225H) | RT-P225H | β-galactosidase | MAGI | 0.58 |
| Cc1cn([C@H]2C[C@H](N=[N+]=[N-])[C@@H](CO)O2)c(=O)[nH]c1=O | IIIB(DPS-R(III)) | RT-Y181C | cytopathic effect / XTT | CEM + CEM-SS | 2.7 |
| Cc1cn([C@H]2C[C@H](N=[N+]=[N-])[C@@H](CO)O2)c(=O)[nH]c1=O | IIIB TIBO R82150-resistant (RT L100I) | RT-L100I | syncytia | CEM | 1 |
| Nc1ccn([C@H]2CC[C@@H](CO)O2)c(=O)n1 | NI-10.93 (HXB2 RT T69N K70R Q151M) | RT-T69N K70R Q151M | cytopathic effect | MT-4 | 8.55 |
| Cc1cn([C@H]2C[C@H](N=[N+]=[N-])[C@@H](CO)O2)c(=O)[nH]c1=O | NL4-3 | RT-V106A | cytopathic effect / XTT | CEM + CEM-SS | 1.33 |
| Cc1cn([C@H]2C[C@H](N=[N+]=[N-])[C@@H](CO)O2)c(=O)[nH]c1=O | IIIB-Pyridinone(0.1)(RT-V179N | RT-V179N | syncytia | CEM | 2 |
| Nc1nc2c(ncn2[C@H]2CO[C@@H](CO)O2)c(=O)[nH]1 | RT-103N 181C | RT-K103N Y181C | - | - | 0.15 |
| CC(C)=CCOc1cc(NC(=S)c2ccoc2C)ccc1Cl | IIIB | RT-Y181C | cytopathic effect | CEM | 7.5 |
| COc1c(O)c(Cl)c2c(c1OC)-c1c(c(Cl)c(O)c(OC)c1OC)C[C@H](C)[C@H](C)C2 | 1506-RS (RT-Y188L) | RT-Y188L | cytopathic effect / MTT | MT-4 | >14.1 |
| CC(C)=CCN1Cc2cc(Cl)cc3[nH]c(=S)n(c23)C[C@@H]1C | BCF01 | RT-A98G K103R Y181C | - | PBMC | >312.5 |
| CN[C@H]1CO[C@@H]2OCC[C@H](OC(=O)N[C@@H](Cc3cccc(OC)c3)[C@H](O)CN(CC(C)C)S(=O)(=O)c3ccc4nc(NC(C)C)sc4c3)[C@@H]21 | NL4-3 | L10F L33I M36I M46I I54V K55R I62V L63P A71V G73S V82T | p24 / luminescence | MT-4 | 0.2 |
| CCNc1cccnc1N1CCN(C(=O)c2cc3cc(OC)ccc3[nH]2)CC1 | IIIB BHAP(RT-L100I) | RT-L100I | syncytia | CEM | 125 |
| Cc1ccnc2c1NC(=O)c1cccnc1N2C1CC1 | A17 | RT-K103N Y181C | cytopathic effect / MTT | MT-4 | >588 |
| Cc1ccnc2c1NC(=O)c1cccnc1N2C1CC1 | NL4-3 | RT-A98G | XTT | CEM + CEM-SS | 10 |
| CCc1c(C(=O)c2cc(C)cc(C)c2)n(CC2CC=CC2)c(=O)[nH]c1=O | NL4-3 | RT-K101E | cytopathic effect / XTT | CEM + CEM-SS | >70 |
| Cc1cn([C@H]2C[C@H](N=[N+]=[N-])[C@@H](CO)O2)c(=O)[nH]c1=O | N119 nevirapine-resistant (RT Y181C) | RT-Y181C | cytopathic effect / MTT | MT-2 | 2.4 |
| Cc1cn([C@@H]2O[C@H](CO[Si](C)(C)C(C)(C)C)C3(OS(=O)(=O)C=C3N)[C@H]2O[Si](C)(C)C(C)(C)C)c(=O)n(C)c1=O | IIIB | RT-V106N | cytopathic effect / XTT | CEM | 117 |
| Cc1ccnc2c1NC(=O)c1cccnc1N2C1CC1 | NRTI resistant (RT Y181C) A17 | RT-Y181C | p24 | PBMC | 2941 |
| Cc1c(N)nc(N)nc1OCCOCP(=O)(O)O | Clinical isolate C20 | RT-M41L D67N V118I M184V L210W T215Y | syncytia | CEM | 16.1 |
| O=c1[nH]cnc2c1ncn2[C@H]1CC[C@@H](CO)O1 | BCF02 | RT-A98G V106I Y181C | - | PBMC | 0.353 |

The first 6 rows once more:

SMILES	strain or isolate	mutations	method	cell line	value
CCc1c(Sc2ccccn2)n(COCc2ccccc2)c(=O)[nH]c1=O	IIIB(A17(III))	RT-K103N Y181C	cytopathic effect / XTT	CEM + CEM-SS	>333
O=c1[nH]cnc2c1ncn2[C@H]1CC[C@@H](CO)O1	IIIB-TSAO-m3T(10)(RT-Y181C)	RT-Y181C	syncytia	CEM	1.1
Nc1ccn([C@H]2CC[C@@H](CO)O2)c(=O)n1	HXB2D (RT-K65R)	RT-K65R	p24	MT-4	12.4
Nc1ccn([C@H]2CC[C@@H](CO)O2)c(=O)n1	BCF02	RT-A98G V106I Y181C	-	PBMC	0.2
C[C@H](Cn1cnc2c(N)ncnc21)OCP(=O)(O)O	Clinical isolate HA20.17	RT-A62V V75I F77L Q151M M184V	syncytia	CEM	15.8
CC(C)CN(C[C@@H](O)[C@H](Cc1ccccc1)NC(=O)O[C@H]1CCOC1)S(=O)(=O)c1ccc(N)cc1	NL4-3	L10F V32I L33F M46L I54M A71V	p24 / luminescence	MT-4	>27